Measured values published in patent US10987371B2 (priority 2017, dated 2021).

System: EBOV-Kikwit-GFP

O=c1c(O[C@@H]2O[C@H](CO)[C@@H](O)[C@H](O)[C@H]2O)c(-c2ccc(O)c(O)c2)oc2cc(O)cc(O)c12 [Q3G, Quercetin-3-β-O-D-glucoside] showed an EC50 of 5.3 µM.
